Here are results for 1 protein from patent US20110306035A1, “Methods and Compositions for Detection of a Pathogen, Disease, Medical Condition, or Biomarker Thereof” (priority 2008, published 2011).

The data set deals with T1, Bach1 [(Dabcyl)-R-G-V-V-N-A-/-S-S-R-L-A-(EDANS)].
T1 chain: RGVVNASSRLA

B1: recombinant CMV protease (Herpesvirus 5 (CMV), Strain AD-169) (protein)
chain: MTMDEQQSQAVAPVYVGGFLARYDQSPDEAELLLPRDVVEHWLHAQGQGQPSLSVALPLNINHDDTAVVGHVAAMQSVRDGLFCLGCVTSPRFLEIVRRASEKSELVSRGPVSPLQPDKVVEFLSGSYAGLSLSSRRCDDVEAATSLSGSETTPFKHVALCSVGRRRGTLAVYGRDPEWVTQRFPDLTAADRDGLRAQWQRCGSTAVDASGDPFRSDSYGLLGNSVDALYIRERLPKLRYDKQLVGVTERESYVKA
Regarding B1, the “cleavage of FRET substrate (cross reactivity test)” value is listed as “CMV protease only cleaved substrates containing a CMV protease cleavage site”.
